System: HCV genotype 1b I389luc-ubi-neo/NS3-3'/5.1 replicon in Huh5.2 cells
Format: cell-based, Hepatitis C Virus

| Compound | Selectivity index (CC50/EC50) |
| --- | --- |
| CC[C@H]1C[C@H](C)[C@@]2(NC1=O)O[C@@H](C[C@H](O)[C@@H](C)CC/C=C/C=C(\C)[C@@H]1C/C=C/C=C/[C@H](O)[C@H](C)[C@@H](O)[C@@H](CCC(C)=O)C(=O)N[C@@H](C(C)C)C(=O)N[C@@H](Cc3cccc(O)c3)C(=O)N3CCC[C@H](N3)C(=O)O1)[C@H](C)[C@H](O)[C@@H]2C [Sanglifehrin A, 5, Sanglifehrin A, reference compound] | 28.7 |
| CC(=O)CC[C@H]1C(=O)N[C@@H](C(C)C)C(=O)N[C@@H](Cc2cccc(O)c2)C(=O)N2CCC[C@H](N2)C(=O)O[C@H](/C(C)=C/CO)C/C=C/C=C/[C@H](O)[C@H](C)[C@H]1O [hydroxymacrocycle, 6, reference compound] | 9.9 |

From patent publication US9119853B2, “Sanglifehrin based compounds” (priority 2010, dated 2015)
